{"source": "paper PMC11053914", "about": "(Viruses, 2024)", "test_system": "HEK293T cells", "experiment": "Cytotoxicity assay (CellTiter-Glo) in HEK293T cells", "assay_type": "cell-based", "details": "2-fold dilutions from 100 μM, 48 h, DMSO group = 100%", "data": [{"smiles": "CC[C@H](C)[C@H](NC(=O)[C@H](C)NC(=O)[C@H](CC(C)C)NC(=O)CNC(C)=O)C(=O)N[C@H](C(=O)N[C@H](C(=O)N[C@@H](Cc1ccc(O)cc1)C(=O)N[C@@H](Cc1c[nH]c2ccccc12)C(=O)NCC(=O)N[C@@H](CC(C)C)C(=O)N[C@@H](Cc1c[nH]cn1)C(=O)N[C@H](C(=O)NCC(=O)N[C@@H](CCC(=O)O)C(=O)N[C@@H](CCCNC(=N)N)C(=O)NCC(N)=O)[C@@H](C)O)[C@@H](C)O)[C@@H](C)O", "note": "[VMP-63]", "values": [{"measurement": "cell viability of HEK293T cells", "value": "no significant effect on cell viability"}]}, {"smiles": "CC[C@H](C)[C@H](NC(=O)[C@H](C)NC(=O)[C@H](CO)NC(=O)[C@H](CC(N)=O)NC(=O)[C@H](CO)NC(=O)[C@H](Cc1ccccc1)NC(=O)[C@H](CS)NC(=O)[C@H](CC(=O)O)NC(=O)[C@H](Cc1ccccc1)NC(=O)[C@H](Cc1ccc(O)cc1)NC(=O)[C@H](Cc1ccc(O)cc1)NC(=O)[C@H](CC(C)C)NC(=O)[C@H](CCCNC(=N)N)NC(C)=O)C(N)=O", "note": "[VMP-108]", "values": [{"measurement": "cell viability of HEK293T cells", "value": "no significant effect on cell viability"}]}]}
